Pooled drug test results. Numbers come from NIAID ChemDB, via PubChem.

Shared fields: tests in culture; organism: Coxsackie virus; method: cytopathic effect; endpoint: EC50

ECn: concentration that inhibits the pathogen or its effect by n%.

Nc1ccn([C@@H]2C[C@H](CO)[C@@H](O)[C@H]2O)c(=O)n1 ; cells: HeLa ; strain or isolate: TYPE B4 ; value: >400 µg/mL
Nc1ncnc2c1ccn2[C@@H]1O[C@H](CO)[C@H](O)[C@H]1O ; cells: HeLa ; strain or isolate: TYPE B4 ; value: ≥4 µg/mL
Cc1cn([C@H]2C[C@H](O)[C@@H](CO)[C@@H]2C)c(=O)[nH]c1=O ; cells: HeLa ; strain or isolate: TYPE B4 ; value: >400 µg/mL
ClCN1CC[N+]2(CC1)CC[N+]1(CCN(CCl)CC1)CC2 ; cells: HeLa ; strain or isolate: B3 ; value: >70 µg/mL
CCOC(=O)C(CCSC[C@H]1O[C@@H](n2ccc3c(N)ncnc32)[C@H](O)[C@@H]1O)NC(=O)COC ; cells: HeLa ; strain or isolate: TYPE B4 ; value: 150 µg/mL
Nc1nccc2c1ncn2[C@@H]1O[C@H](CO)[C@@H](O)[C@H]1O ; cells: HeLa ; strain or isolate: TYPE B4 ; value: ≥40 µg/mL
NC(=O)c1ncn([C@@H]2O[C@H](CO)[C@@H](O)[C@H]2O)c1C#CCCO ; cells: HeLa ; strain or isolate: TYPE B4 ; value: >200 µg/mL
Nc1nccc2c1ncn2[C@@H]1C[C@H](CO)[C@@H](O)[C@H]1O ; cells: VERO ; strain or isolate: TYPE B4 ; value: 7 µg/mL
C[C@H](Cn1cnc2c(N)ncnc21)OCP(=O)(O)O ; strain or isolate: TYPE B4 ; value: >525 µM
Nc1nc(Cl)c2nnn(C[C@H]3CC[C@@H](CO)C3)c2n1 ; cells: VERO ; strain or isolate: TYPE B4 ; value: >200 µg/mL
O=C(CCCl)NN1CC[N+]2(CC1)CC[N+]1(CCN(NC(=O)CCCl)CC1)CC2 ; cells: HeLa ; strain or isolate: B3 ; value: >70 µg/mL
N#Cc1cn([C@@H]2O[C@H](CO)[C@@H](O)[C@H]2O)c2ncnc(N)c12 ; cells: VERO ; strain or isolate: TYPE B4 ; value: ≥0.04 µg/mL
Nc1cc(OCCOCP(=O)(O)O)nc(N)n1 ; strain or isolate: TYPE B4 ; value: >190 µM
Nc1nc(Cl)c2ncn(C[C@H]3CC[C@@H](CO)C3)c2n1 ; cells: HeLa ; strain or isolate: TYPE B4 ; value: >10 µg/mL
C#Cc1c(C(N)=O)ncn1[C@@H]1O[C@H](CO)[C@@H](O)[C@H]1O ; cells: HeLa ; strain or isolate: TYPE B4 ; value: 2 µg/mL
Nc1ncnc2c1ccn2[C@@H]1O[C@H](CO)[C@H](O)[C@H]1O ; cells: VERO ; strain or isolate: TYPE B4 ; value: ≥40 µg/mL
Nc1ncnc2c1ncn2[C@@H]1C[C@H](CO)[C@@H](O)C1 ; cells: VERO ; strain or isolate: TYPE B4 ; value: >100 µg/mL
Nc1ncnc2c1c(Br)cn2[C@@H]1O[C@H](CO)[C@@H](O)[C@H]1O ; cells: VERO ; strain or isolate: TYPE B4 ; value: 0.07 µg/mL
C[N+]1(C)CCN(c2cccc(N3CC[N+](C)(C)CC3)c2[N+](=O)[O-])CC1 ; cells: HeLa ; strain or isolate: B3 ; value: >70 µg/mL
Nc1ncnc2c1ncn2[C@@H]1C=C[C@@H](O)[C@H]1O ; cells: HeLa ; strain or isolate: TYPE B4 ; value: >400 µg/mL
Cc1cn([C@H]2C[C@@H](CO)[C@H](O)C2)c(=O)[nH]c1=O ; cells: HeLa ; strain or isolate: TYPE B4 ; value: >100 µg/mL
CCCC#Cc1c(C(N)=O)ncn1[C@@H]1O[C@H](CO)[C@@H](O)[C@H]1O ; cells: HeLa ; strain or isolate: TYPE B4 ; value: >200 µg/mL
Nc1nc2c(nnn2C[C@H]2CC[C@@H](CO)C2)c(=O)[nH]1 ; cells: HeLa ; strain or isolate: TYPE B4 ; value: >200 µg/mL
Nc1ncnc2c1ccn2[C@@H]1C[C@H](CO)[C@@H](O)[C@H]1O ; cells: HeLa ; strain or isolate: TYPE B4 ; value: 7 µg/mL
C[N+]1(CC[N+]2(C)CCN(c3ncnc(Cl)c3[N+](=O)[O-])CC2)CCN(c2ncnc(Cl)c2[N+](=O)[O-])CC1 ; cells: HeLa ; strain or isolate: B3 ; value: >70 µg/mL
CCCOC(=O)C(CCSC[C@H]1O[C@@H](n2ccc3c(N)ncnc32)[C@H](O)[C@@H]1O)NC(=O)C(F)(F)F ; cells: VERO ; strain or isolate: TYPE B4 ; value: 150 µg/mL
OCCOC(CCO)n1cnc2cc(Cl)c(Cl)cc21 ; cells: HeLa ; strain or isolate: TYPE B4 ; value: >200 µg/mL
O=[N+]([O-])c1c(C2CCCCCC2)ncnc1N1CC[N+]2(CC1)CC[N+]1(CCN(c3ncnc(C4CCCCCC4)c3[N+](=O)[O-])CC1)CC2 ; cells: HeLa ; strain or isolate: B3 ; value: >70 µg/mL
NC(=O)c1ncn([C@@H]2O[C@H](CO)[C@@H](O)[C@H]2O)n1 ; cells: HeLa ; strain or isolate: TYPE B4 ; value: 40 µg/mL
Nc1ncnc2c1ncn2[C@@H]1C=C(CO)[C@@H](O)[C@H]1O ; cells: HeLa ; strain or isolate: TYPE B4 ; value: >10 µg/mL
C[C@H]1C[C@@H](n2cnc3c(N)ncnc32)[C@H](O)[C@@H]1O ; cells: VERO ; strain or isolate: TYPE B4 ; value: >100 µg/mL
Nc1ncnc2c1ncn2C1CC(CO)[C@@H](O)[C@H]1O ; cells: HeLa ; strain or isolate: TYPE B4 ; value: ≥10 µg/mL
OC[C@H]1O[C@@H](n2cnc3cc(Cl)c(Cl)cc32)[C@@H](O)[C@H]1O ; cells: HeLa ; strain or isolate: TYPE B4 ; value: >100 µg/mL
N#Cc1cn([C@H]2C[C@H](O)[C@@H](CO)O2)c2ncnc(N)c12 ; cells: VERO ; strain or isolate: TYPE B4 ; value: >1 µg/mL
Nc1ncnc2c1ccn2[C@@H]1O[C@H](CO)[C@@H](O)[C@H]1O ; cells: VERO ; strain or isolate: TYPE B4 ; value: 0.07 µg/mL
Nc1ncnc2c1ccn2[C@H]1C[C@H](O)[C@@H](CO)O1 ; cells: HeLa ; strain or isolate: TYPE B4 ; value: >400 µg/mL
Nc1cc(OC[C@H](CO)OCP(=O)(O)O)nc(N)n1 ; strain or isolate: TYPE B4 ; value: >15 µM
NC(=O)c1c[se]c([C@@H]2O[C@H](CO)[C@@H](O)[C@H]2O)n1 ; cells: HeLa ; strain or isolate: TYPE B4/JVB ; value: 6 µg/mL
O=c1[nH]cnc2c1ncn2[C@@H]1C=C(CO)[C@@H](O)[C@H]1O ; cells: HeLa ; strain or isolate: TYPE B4 ; value: >400 µg/mL
O=c1[nH]c(=O)n([C@H]2C[C@H](O)[C@@H](CO)O2)cc1/C=C/Br ; cells: VERO ; strain or isolate: TYPE B4 ; value: >400 µg/mL
Nc1ncnc2c1ncn2[C@H]1[C@H](O)[C@H](O)[C@]2(CO)O[C@H]12 ; cells: HeLa ; strain or isolate: TYPE B4 ; value: >10 µg/mL
O=[N+]([O-])c1cc(Cl)c(Cl)cc1[N+](=O)[O-] ; cells: HeLa ; strain or isolate: TYPE B4 ; value: >4 µg/mL
Nc1ncnc2c1ncn2C[C@H](O)CO ; cells: HeLa ; strain or isolate: TYPE B4 ; value: >400 µg/mL
NC(=O)c1ncn([C@@H]2O[C@H](CO)[C@@H](O)[C@H]2O)n1 ; cells: HeLa ; strain or isolate: TYPE B4 ; value: 20 µg/mL
Clc1cc2nc[nH]c2cc1Cl ; cells: HeLa ; strain or isolate: TYPE B4 ; value: >10 µg/mL
Nc1ncnc2c1ncn2C[C@H](O)CO ; cells: HeLa ; strain or isolate: TYPE B4 ; value: >400 µg/mL

Repeating the first 6 entries:

{"smiles": "Nc1ccn([C@@H]2C[C@H](CO)[C@@H](O)[C@H]2O)c(=O)n1", "cells": "HeLa", "strain or isolate": "TYPE B4", "value": ">400 µg/mL"}
{"smiles": "Nc1ncnc2c1ccn2[C@@H]1O[C@H](CO)[C@H](O)[C@H]1O", "cells": "HeLa", "strain or isolate": "TYPE B4", "value": "≥4 µg/mL"}
{"smiles": "Cc1cn([C@H]2C[C@H](O)[C@@H](CO)[C@@H]2C)c(=O)[nH]c1=O", "cells": "HeLa", "strain or isolate": "TYPE B4", "value": ">400 µg/mL"}
{"smiles": "ClCN1CC[N+]2(CC1)CC[N+]1(CCN(CCl)CC1)CC2", "cells": "HeLa", "strain or isolate": "B3", "value": ">70 µg/mL"}
{"smiles": "CCOC(=O)C(CCSC[C@H]1O[C@@H](n2ccc3c(N)ncnc32)[C@H](O)[C@@H]1O)NC(=O)COC", "cells": "HeLa", "strain or isolate": "TYPE B4", "value": "150 µg/mL"}
{"smiles": "Nc1nccc2c1ncn2[C@@H]1O[C@H](CO)[C@@H](O)[C@H]1O", "cells": "HeLa", "strain or isolate": "TYPE B4", "value": "≥40 µg/mL"}

Conditions beyond the fields shown may differ between rows.